Laboratory results: PubChem BioAssay AID504761 (Drosophila RNAi Screening Center, 2011)

- Screen: 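Insect host genes that dengue virus relies on to spread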 (primary screen)
- Cells: D.Mel-2 cells from Drosophila
- Knock-down reagent: long dsRNA against Drosophila genes
- Treatment: infection with dengue virus type 2; dose and infection time not stated
- Read-out: 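Cells stained for dengue envelope protein and imaged; percent of infected cells per well on duplicate plates, ranked by infection, with stained nuclei counted for cell number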
- Scale: infection score: higher = more virus-infected cells; cell count: higher = more cells in the well
- Hit rule: 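Low infection ranks in the two replicates (chance level up to 0.065) followed by a retest with a 1.5-fold or larger significant decrease, p below 0.05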
- Meaning of the calls: active = confirmed: knock-down lowers infection; inactive = not picked or not confirmed
The deposit covers about 22,000 reagents; this is a random part of those with a known target gene and a result. Over the whole deposit, 116 (0.52%) are marked active. 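Calls depend on retest data that are not deposited; infection was ranked per plate without normalising between plates; the unit of the infection score is not given.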 The raw values are shown without normalisation. Names joined by + are all predicted targets of the reagent. Not given: the amount of reagent, the time to read-out.

Knock-down of Myo61F (Myosin 61F) [DRSC22144] resulted in: infection score, replicate 1 = 1.76; infection score, replicate 2 = 16; cell count, replicate 1 = 6823; cell count, replicate 2 = 6007; inactive.
Depletion of Myo61F (Myosin 61F) [DRSC27633] resulted in: infection score, replicate 1 = 3.7; infection score, replicate 2 = 7.79; cell count, replicate 1 = 6597; cell count, replicate 2 = 6569; inactive.
With knock-down of Rab11 [DRSC16809] the results were infection score, replicate 1 = 17.3; infection score, replicate 2 = 9.83; cell count, replicate 1 = 3820; cell count, replicate 2 = 3103; inactive.
Depletion of Rab11 [DRSC23620] gave: infection score, replicate 1 = 2.98; infection score, replicate 2 = 3.04; cell count, replicate 1 = 5713; cell count, replicate 2 = 5793; inactive.
Against CG14835 [DRSC10205], the values are infection score, replicate 1 = 5.03; infection score, replicate 2 = 2.91; cell count, replicate 1 = 6306; cell count, replicate 2 = 6216; inactive.
With knock-down of CG6310 [DRSC10619] the results were infection score, replicate 1 = 3; infection score, replicate 2 = 8.18; cell count, replicate 1 = 5992; cell count, replicate 2 = 6185; inactive.
CG11666 [DRSC22379] gave infection score, replicate 1 = 3.32; infection score, replicate 2 = 3.49; cell count, replicate 1 = 5935; cell count, replicate 2 = 6109; inactive.
After knock-down of CG5359 + Spn85F [DRSC26211], the screen gave infection score, replicate 1 = 15.8; infection score, replicate 2 = 5.36; cell count, replicate 1 = 5367; cell count, replicate 2 = 5705; inactive.
CG10102 (retired record) [DRSC05963] gave infection score, replicate 1 = 7.46; infection score, replicate 2 = 3.48; cell count, replicate 1 = 7020; cell count, replicate 2 = 6919; inactive.
After knock-down of Slc45-1 [DRSC10427], the record shows infection score, replicate 1 = 3.65; infection score, replicate 2 = 3.42; cell count, replicate 1 = 5728; cell count, replicate 2 = 6164; inactive.
Knock-down of Taf10 (TBP-associated factor 10) [DRSC30091] came out at: infection score, replicate 1 = 4.64; infection score, replicate 2 = 19.1; cell count, replicate 1 = 6136; cell count, replicate 2 = 6106; inactive.

3 entries from above, showing only “cell count, replicate 1”.
Myo61F (Myosin 61F) [DRSC27633] = 6597
Rab11 [DRSC16809] = 3820
Rab11 [DRSC23620] = 5713

Further entries:
With knock-down of mub (mushroom-body expressed) [DRSC11896], the record shows infection score, replicate 1 = 25.3; infection score, replicate 2 = 11; cell count, replicate 1 = 5904; cell count, replicate 2 = 6982; inactive.
mub (mushroom-body expressed) [DRSC29738] showed infection score, replicate 1 = 15.6; infection score, replicate 2 = 11.6; cell count, replicate 1 = 6562; cell count, replicate 2 = 5967; inactive.
Depletion of CG30043 [DRSC06285] came out at: infection score, replicate 1 = 15.1; infection score, replicate 2 = 7.26; cell count, replicate 1 = 4797; cell count, replicate 2 = 6075; inactive.
Depletion of CG5254 [DRSC18611] came out at: infection score, replicate 1 = 5.04; infection score, replicate 2 = 10.4; cell count, replicate 1 = 5640; cell count, replicate 2 = 3250; inactive.
Silencing of CG2915 [DRSC06842] came out at: infection score, replicate 1 = 3.48; infection score, replicate 2 = 5.39; cell count, replicate 1 = 5694; cell count, replicate 2 = 6033; inactive.
With knock-down of hob (hobbit) [DRSC08426], the screen gave infection score, replicate 1 = 8.9; infection score, replicate 2 = 6.43; cell count, replicate 1 = 6598; cell count, replicate 2 = 6037; inactive.
Knock-down of hob (hobbit) [DRSC24675] came out at: infection score, replicate 1 = 4.38; infection score, replicate 2 = 3.72; cell count, replicate 1 = 6191; cell count, replicate 2 = 5862; inactive.
Ppat-Dpck [DRSC09744] gave infection score, replicate 1 = 0.2; infection score, replicate 2 = 2.82; cell count, replicate 1 = 6090; cell count, replicate 2 = 5789; inactive.
For pck (pickel) [DRSC18565], the values are infection score, replicate 2 = 27.1; cell count, replicate 2 = 5345; inactive.
Against CG15646 [DRSC19682], the values are infection score, replicate 1 = 11.3; infection score, replicate 2 = 3.98; cell count, replicate 1 = 5153; cell count, replicate 2 = 6451; inactive.
